Results of unrelated studies side by side (data: NIAID ChemDB).

All rows: growth or infection tests; agent: Poliovirus; cell line: VERO; measure: EC50

ECn is the concentration giving n% inhibition of infection, replication or growth. Conditions beyond the fields shown may differ between rows.

| compound | strain or isolate | result |
|---|---|---|
| Cc1cc(CCCCCCCOc2ccc(C3=NCCO3)cc2)on1 | TYPE 2 | 0.61 µM |
| Cn1cc(CCCCOc2ccc(C(=O)O)cc2)cc1C=O | Type 1/Sabin strain | >380 µM |
| CC(=O)O[C@H]1CC2=CCC3C(CCC4(C)C(C(CCC=C(C)C)COS(=O)(=O)O)CCC34)C2(C)C[C@@H]1OS(=O)(=O)O | TYPE 3 | 45.9 µg/mL |
| CCOc1ccc(-c2cc(N(CC)CC)no2)c(O)c1 | SABIN (TYPE 1) | >362 µM |
| COc1cc(/C=N/N=C(/N)NO)cc(OC)c1OC.Cc1ccc(S(=O)(=O)O)cc1 | Brunhilde (type 1) | >50 µM |
| CCOC(=O)c1ccc(OCCCCc2cc(C=O)n(C)c2)cc1 | Type 1/Sabin strain | 5 µM |
| CCN(CC)c1cc(-c2ccc(O)cc2O)on1 | SABIN (TYPE 1) | 25 µM |
| Cc1ccc(C(=O)CCCCOc2ccc(C3=N[C@H](C)CO3)cc2)s1 | TYPE 1 | >28.01 µM |
| C#CCOc1cc(OC)ccc1-c1cc(N(CC)CC)no1 | SABIN (TYPE 1) | >40 µM |
| Cc1ccc(C(=O)CCCCOc2ccc(C3=NCCO3)cc2)s1 | TYPE 2 | 0.78 µM |
| COc1ccc(OC)c(/C=N/N=C(/N)NO)c1.Cc1ccc(S(=O)(=O)O)cc1 | Brunhilde (type 1) | >50 µM |
| Cc1ccc(C(=O)CCCCCCOc2ccc(C3=NC(C)(C)CO3)cc2)s1 | TYPE 2 | >26.95 µM |
| CCN(CC)c1cc(-c2ccc(OC)cc2OC)on1 | SABIN (TYPE 1) | 20 µM |
| Cc1ccc(C(=O)CCCCCCOc2ccc(C3=NCC(C)O3)cc2)s1 | TYPE 3 | 2.62 µM |
| CC(C)=CCCC(CO)C1CCC2C3CC=C4C[C@H](O)[C@@H](O)CC4(C)C3CCC12C | TYPE 3 | 56.3 µg/mL |

Again, the opening 2 rows:

compound	strain or isolate	result
Cc1cc(CCCCCCCOc2ccc(C3=NCCO3)cc2)on1	TYPE 2	0.61 µM
Cn1cc(CCCCOc2ccc(C(=O)O)cc2)cc1C=O	Type 1/Sabin strain	>380 µM